# Results: patent US20260069689A1, “ANTI-SARS-COV-2-SPIKE GLYCOPROTEIN ANTIBODIES AND ANTIGEN-BINDING FRAGMENTS” (Regeneron, published 2026)
# Where a chain is given by its changes, count along the chain named.
# B1: mAb14313 (antibody, V domains shown)
# VH: EVQLVESGGGLVQPGRSLRLSCVASGFTFDDSAMHWVRQPPGKGLEWVSGISWNSGIIGYAESVKGRFIISRDNAKNSLFLHMRGLRPEDTAVYYCARDRLELSYYYYGMDVWGQGTTVTVSS
# VL: QSVLTQPPSASGTPGQRVTISCSGSSSNIGSNTVNWYQQFPGTAPRLLIYSNDQRPSGIPDRFSGSKSGTSASLAISGLQSEDEADYYCSTWDDSLNGAVFGGGTQLTVLG
# B2: mAb14247 (antibody, V domains shown)
# VH: QITLKESGPTLVKPTQTLTLTCTFSGFSLSTSAVGVGWIRQPPGKALEWLALIYWDDDKRYSPSLKSRLTITKDTSKNQLVLTMTNVDPVDTATYYCAHHTIQLIFDYWGQGTLVTVSS
# VL: QSALTQPASVSGSPGQSITISCTATSSDVGNYNYVSWYQQHPGKAPKLMIYEVSNRPSGVSNRFSGSKSGNTASLTISGLQAEDEADYYCSSYTSSSTPLVFGGGTKLTVLG
# B3: mAb14315 (antibody, V domains shown)
# VH: QVQLVQSGAEVKKPGSSVKVSCKASGDTFSTYAINWVRQAPGQGLEWMGRFIHIFGTANYAQKFQGRVTITADESTSTAYMELRSLRSEDTAVYYCARDGVDYGDYRPDYWGQGTLVTVSS
# VL: EIVLTQSPGTLSLSPGERATLSCRASQSVSSNYLAWYQQKPGQAPRLLIYGASSRATGIPERFSGSGSGTDFTLTISRLEPEDFAVYYCQQYGSSLYTFGQGTKLEIKR
# B4: mAb14257 (antibody, V domains shown)
# VH: EVQLVESGGGLVQPGGSLRLSCAASGFTVSRSYMNWVRQAPGKGLEWVSVVFTGGTTKHTDSVKGRFTISRDNSMNTLYLQMNSLRPEDTAVYYCARVAIVETTGAFDIWGQGTMVTVSS
# VL: QSVLTQPPSVSGAPGQRVTISCTGTSSNIGADFDVHWYQQFPGTAPKLLIYGHTNRPSGIPDRFSGSKSGTSASLAITGLQAEDEADYYCQSYDSSLSGSVVFGGGTKLTVLG
# B5: mAb14255 (antibody, V domains shown)
# VH: QVQLQESGPGLVKPSETLSLTCTVSGGSISGYYWSWIRQPPGKGLDWIGYIYYRGNTNYNPSLKSRVTISVDTSNNQFSLKLSSVTAADTAVYYCARYGEGYGDASGYHFDYWGQGTLVTVSS
# VL: QSALTQPASVSGSPGQSITISCTGTSSDVGSYNLVSWYQQHPGKAPKLMIYEDSKRPSGVANPFSGSKSGNTASLTISGLQAEDEADYYCSSYAGSSTWVFGGGTKLTVLG
# B6: mAb14286 (antibody, V domains shown)
# VH: QVQLVQSGAEVKKPGASVKVSCKASGYTFTDYFIHWVRQAPGQGLEWMGWINPTSGGTNYAQKFRGRVTMTRDTSISTAYVELSRLRSDDTALYYCARDLPFYSDTKQFDYWGQGTLVTVSS
# VL: QSALTQPASVSGYPGQSITISCTGTSSDVGGYNYVSWYQQHPGKAPKLMIFDVSNRPSGVSNRFSGSKSGNTASLTFSGLQAEDEADYYCSSYTSSSTLVFGGGTKLTVLG
# B7: mAb14282 (antibody, V domains shown)
# VH: QVQLVQSGAEVKKPGASVKVSCKASGYIFTDHYMHWVRQAPGQGLEWMGWINPNSGATNYAQNFQGRVTMTRDTSIITVYMELSRLRSDDTAVYYCARDSSPYMIRYTMDVWGQGTTITVSS
# VL: QSALTQPASVSGSPGQSITISCTGTSSDVGSYNLVSWYQQHPGKAPKLMIYELTKRPSGVSNRFSGSKSGNTASLTISGLQAEDEADYYCSSYRGSVTDVVFGGGTKLTVLG
# B8: mAb14281 (antibody, V domains shown)
# VH: QVQLVQSGADVKKPGASVKVSCKTSGYIFTGYYIHWVRQAPGQGLEWMGWINPNSGGTNSAQKFQGRVTMTRDTSISTVYMELSRLRSDDTAVYYCAKSNSFSVLDYNFDYWGQGTLVTVSS
# VL: SSELTQDPAVSVALGQTVRITCQGDSLRSYYASWYQQKPGQAPVLVIYDKNNRPSGIPDRFSGSSSGNTASLTITGAQAEDEADYYCNSRDSSRNHLVVFGGGTKLTVLG
# B9: mAb14230 (antibody, V domains shown)
# VH: EVQLVESGGGLIQPGRSLRLSCAASGFTFDDYAMHWVRQAPGKGLEWVSGISWNSVSIDYADSVKGRFTISRDNAKNSLYLQMTSLTVEDTALYYCAKAFGYETLTGSDYFAYWGPGTLVTVSS
# VL: EIVLTQSPGTLSLSPGERATLSCRASQTVISTYLAWYQQKPGQSPRLLIYGASSRATGIPDRFSGSGSGTDFTLTISRLEPEDFAVYYCQQYGSSPQLTFGGGTKVEIKR
# B10: mAb14285 (antibody, V domains shown)
# VH: QVQLVQSGAEVKKPGASVKVSCKASGYTFTGYFIHWVRQAPGQGLEWMGWISPISGGTNYAQKFQGRVTVTRDTSITTAYMELSRLTSDDTAVYHCAREGGTWKGDFDYWGQGTLVTVSS
# VL: B5 VL with G30E, D53G, A61S, P63R
# B11: mAb14280 (antibody, V domains shown)
# VH: QVQLVQSGAEVKKPGASVRVSCKASGYTFTGNYIHWVRQAPGQGLEWMAWINPNSGGKNYAQKFQGRVTLTRDTSVNTAYMELSRLRSDDTAMYYCARDVNYNILTGPGGLWGQGTLVTVSS
# VL: QSALTQPPSASGSPGQSVTISCTGTSSDVGGYNFVSWYQQHPGKAPKLMIYEVSKRPSGVPDRFSGSKSGNTASLTVSGLQAEDEADYYCSSYAGSNNFVFGTGTKVTVLG
# B12: mAb14234 (antibody, V domains shown)
# VH: QVQLVESGGGVVQPGRSLRLSCAASGFTFSSYGIHWVRQAPGKGLEWVAIIWYDGSEKYYADSVKGRFTISRDNSKNTLFLQMNSLEAEDTAVYYCARGPDLLTGYYNYFYYGMDVWGQGTTVTVSS
# VL: QSVLTQPPSVSGAPGQRVTISCTGSSSNIGIGYDVHWYQQLPGTVPKLLIYGNTNRPSGVPDRFSGSKSGTSASLAITGLQAEDEADYYCQSYDSSLSSYVFGTGTKVTVLG
# B13: mAb14292 (antibody, V domains shown)
# VH: EVQLVESGGGLVQPGGSLRLSCVASGFAFSTYEMNWVRQAPGKGLEWVSYISSSGSTIYYADSVKGRLTISRDNVKNSLYLQMNSLRVEDTAIYYCARDAIRNNDILTDPATFDPWGQGTLVTVSS
# VL: not shown
# B14: mAb15156 (antibody, V domains shown)
# VH: QLQLQESGPGLVKSSETLSLTCTVSASITGSTYYWGWIRQPPGKGLEWIGSIYYSGTTYYKASLKSRVTISVDTSKNQFSLKLTSVTVADTAVYYCVSHLLGNYHKYGMDVWGQGTTVTVSS
# VL: QSVLTQPPSASGTPGQRVTISCSGSRSNIGINTVNWYQQFPGTALNLLIFSDNQRPSGVPDRFSGSKSGTSASLAISGLQSEDEADYYCAAWDDSLNGPDWVFGGGTKLTVLG
# Target: T1, SARS-COV-2 RBD extracellular domain expressed with a C-terminal mouse IgG2a Fc (SARS-CoV-2)
# Test: Biacore SPR, mAb captured on anti-hFc, 37 C
row,Binder,RBD mFc dimer bound at 50 nM [RU]
1,B1,538
2,B2,192
3,B3,416
4,B4,482
5,B5,407
6,B6,337
7,B7,394
8,B8,370
9,B9,295
10,B10,387
11,B11,445
12,B12,415
13,B13,97.9
14,B14,673

# Target: T1, SARS-COV-2 RBD extracellular domain …
# Test: Biacore SPR, mAb captured on anti-hFc, 25 C
row,Binder,RBD mFc dimer bound at 50 nM [RU]
1,B1,407
2,B2,136
3,B3,304
4,B4,403
5,B5,341
6,B6,297
7,B7,326
8,B8,305
9,B9,241
10,B10,319
11,B11,358
12,B12,329
13,B13,76.8
14,B14,493
